Experiments:
human red blood cells = assay: Hemolysis assay; details: selectivity index class
[1] = tested on: Gram-positive and Gram-negative bacteria; assay type: cell-based; details: selectivity index class
Experimental: The antibacterial activity of TP10-NH2-based conjugates, as well as its constituents, was evaluated by microdilution assay in Mueller Hinton broth, MHB (Table 1). […] There are, however, some exceptions. […] Its activity against two other tested bacteria was somewhat lower though.
The antibacterial activity (bacteriostatic: MIC and bactericidal: MBC) of the tested compounds was determined in MHB (Mueller Hinton Broth, Sigma Aldrich, St. Louis, MO, USA) using a serial two-fold dilution method in 96-well microtiter plates according to CLSI recommendations, described in M07-A10 document. The exact conditions have been described previously. All experiments were performed in three replicates. The MIC90 and MIC50 values were defined as the concentrations of compounds tested that caused a 90% or 50% reduction of growth, respectively, comparing to the drug-free control.

Candida albicans cells = assay: Cellular uptake of fluorescent probes (fluorescence microscopy); assay type: cell-based; details: for Cellular Uptake Fungal C. albicans Wall: time class; for Uptake and accumulation in Candida albicans cells: fluorescent probes 40 μM, 30 min, PBS
Candida glabrata cells = assay: as above; assay type: cell-based; details: time class

Compound | Hemolysis Selectivity HEK 293 (human red blood cells) | Hemolysis Selectivity HL-60 (human red blood cells) | Antibacterial Selectivity HEK 293 LLC-PK1 for Gram + [1] | Cellular Uptake Fungal C. albicans Wall (Candida albicans cells) | Cellular Uptake Fungal C. glabrata Nucleus (Candida glabrata cells) | Uptake and accumulation in Candida albicans cells (Candida albicans cells)
CC[C@H](C)[C@H](NC(=O)[C@H](CCCCN)NC(=O)[C@H](CCCCN)NC(=O)[C@H](C)NC(=O)[C@H](CC(C)C)NC(=O)[C@H](C)NC(=O)[C@H](C)NC(=O)[C@H](CC(C)C)NC(=O)[C@H](C)NC(=O)[C@H](CCCCN)NC(=O)[C@H](CC(C)C)NC(=O)[C@H](CC(N)=O)NC(=O)[C@@H](NC(=O)[C@H](CCCCN)NC(=O)CNC(=O)[C@H](CC(C)C)NC(=O)[C@H](CC(C)C)NC(=O)[C@H](Cc1ccc(O)cc1)NC(=O)CNC(=O)[C@H](C)NC(=O)[C@@H](N)CS)[C@@H](C)CC)C(=O)N[C@@H](CC(C)C)C(N)=O [CTP10-NH2] | ++ (++ SI > 4) | + (+ SI > 1) |  |  |  | 
CC[C@H](C)[C@H](NC(=O)[C@H](CCCCN)NC(=O)[C@H](CCCCN)NC(=O)[C@H](C)NC(=O)[C@H](CC(C)C)NC(=O)[C@H](C)NC(=O)[C@H](C)NC(=O)[C@H](CC(C)C)NC(=O)[C@H](C)NC(=O)[C@H](CCCCN)NC(=O)[C@H](CC(C)C)NC(=O)[C@H](CC(N)=O)NC(=O)[C@@H](NC(=O)[C@H](CCCCN)NC(=O)CNC(=O)[C@H](CC(C)C)NC(=O)[C@H](CC(C)C)NC(=O)[C@H](Cc1ccc(O)cc1)NC(=O)CNC(=O)[C@H](C)NC(=O)CN1CCN(c2cc3c(cc2F)c(=O)c(C(=O)O)cn3C2CC2)CC1)[C@@H](C)CC)C(=O)N[C@@H](CC(C)C)C(N)=O [Compound 1, CIP-CH2CO-TP10-NH2] |  |  | + (+ SI > 1) |  |  | 
CC[C@H](C)[C@H](NC(=O)[C@H](CCCCN)NC(=O)[C@H](CCCCN)NC(=O)[C@H](C)NC(=O)[C@H](CC(C)C)NC(=O)[C@H](C)NC(=O)[C@H](C)NC(=O)[C@H](CC(C)C)NC(=O)[C@H](C)NC(=O)[C@H](CCCCN)NC(=O)[C@H](CC(C)C)NC(=O)[C@H](CC(N)=O)NC(=O)[C@@H](NC(=O)[C@H](CCCCN)NC(=O)CNC(=O)[C@H](CC(C)C)NC(=O)[C@H](CC(C)C)NC(=O)[C@H](Cc1ccc(O)cc1)NC(=O)CNC(=O)[C@H](C)N)[C@@H](C)CC)C(=O)N[C@@H](CC(C)C)C(N)=O [TP10-NH2, transportan 10, reference compound] | - (- not detected within 2 h) | - (- not detected within 2 h) | ++ (++ SI > 10) | + (+ within 1 h) | - (- not detected within 2 h) | 
CIP(Cf) |  |  |  |  |  | did not enter these cells
CIP-CH2CO-TP10(Cf)-NH2 [Compound 7] |  |  |  | + (+ within 1 h) | - (- not detected within 2 h) | transported to and accumulated in
TP10(Cf)-NH2 |  |  |  |  |  | transported to and accumulated in
